Anti-infective test results gathered from many reports (values: NIAID ChemDB through PubChem).

All rows: whole-cell or culture tests; agent: Poliovirus; measure: inhibition

For "inactive" no cut-off is given. Lines come from different laboratories, so protocols vary. Inhibition is in % at the dose shown (toxicity tests: loss of growth or viability).

smiles	strain	cell line	dose	result
CC(=O)c1ccc2c(c1)Sc1ccccc1S2	TYPE 3	BSC-1	2 µg/mL	69%
COc1cc(C(=O)Oc2c(-c3ccc(Cl)c(Cl)c3)oc3ccccc3c2=O)ccc1OC(C)=O	TYPE 2	HeLa	1.07 µM	inactive
Clc1ccc(C2CCc3ccccc3O2)c(Cl)c1	TYPE 2	HEP-2	10 µM	5%
C=C(CC[C@@H](COS(=O)(=O)O)[C@H]1CC[C@H]2[C@@H]3CC[C@@H]4[C@H](O)[C@H](OS(=O)(=O)O)CC[C@]4(C)[C@H]3[C@@H](O)C[C@]12C)C(C)C	SABIN (TYPE 3)	VERO	10 µg/mL	33%
O=C(/C=C/c1ccc(O)c(O)c1)Oc1c(-c2ccc(Cl)cc2)oc2ccccc2c1=O	TYPE 2	HeLa	6.25 µM	12%
CC(=O)O[C@H]1CC2=CCC3C(CCC4(C)C(C(CCC=C(C)C)COS(=O)(=O)O)CCC34)C2(C)C[C@@H]1OS(=O)(=O)O	TYPE 3	VERO	80 µg/mL	79.4%
COc1cc(/C=C/C(=O)Oc2c(-c3ccc(Cl)c(Cl)c3)oc3ccccc3c2=O)ccc1O	TYPE 2	HeLa	1.56 µM	11%
CC(C)=CCCC(CO)C1CCC2C3CC=C4C[C@H](O)[C@@H](O)CC4(C)C3CCC12C	TYPE 3	VERO	40 µg/mL	19.2%
CC(=O)Oc1ccc(/C=C/C(=O)Oc2c(-c3ccc(Cl)cc3)oc3ccccc3c2=O)cc1OC(C)=O	TYPE 2	HeLa	0.39 µM	7%
Brc1ccc(C2=Cc3ccccc3OC2)cc1	II (TYPE 2)	HEP-2	10 µM	0%
COc1cc(C(=O)Oc2c(-c3ccc(Cl)cc3)oc3ccccc3c2=O)ccc1O	TYPE 2	HeLa	6.25 µM	20%
CCC(=O)C(CCCCCCOc1ccc(OC)cc1Cl)C(=O)CC	MEF (TYPE 2)	HeLa	0.07 µM	44%
CC(C)CCC[C@@H](COS(=O)(=O)O)[C@H]1CC[C@H]2[C@@H]3CC[C@@H]4[C@H](O)[C@H](OS(=O)(=O)O)CC[C@]4(C)[C@H]3[C@@H](O)C[C@]12C	SABIN (TYPE 3)	VERO	40 µg/mL	33%
COC(C)c1ccc2c(c1)Sc1ccccc1O2	TYPE 3	BSC-1	0.4 µg/mL	86%
CC(=O)c1c(-c2ccc(Cl)cc2)oc2ccccc2c1=O	TYPE 2	HeLa	25 µM	23%
CC12CC[C@H](OS(=O)(=O)O)CC1=CCC1C2CCC2(C)C(C(=O)CO)CCC12	TYPE 3	VERO	80 µg/mL	1.4%
CC(O)c1ccc2c(c1)S(=O)(=O)c1ccccc1O2	TYPE 3	BSC-1	10 µg/mL	18%
Clc1ccc(C2=Cc3cc(Cl)ccc3OC2)cc1	IB (TYPE 2)	HEP-2	10 µM	5%
CCC(=O)c1ccc2c(c1)Sc1ccccc1O2	TYPE 3	BSC-1	0.4 µg/mL	18%
C1=C(c2ccccc2)COc2ccccc21	IA (TYPE 2)	HEP-2	10 µM	100%
CC(C)CCCC(COS(=O)(=O)O)C1CCC2C3CC=C4C[C@H](O)[C@@H](OS(=O)(=O)O)CC4(C)C3CCC12C	TYPE 3	VERO	40 µg/mL	20.5%
C/C(=N\O)c1ccc2c(c1)Sc1ccccc1S2	TYPE 3	BSC-1	2 µg/mL	22%
Clc1ccc(C2=Cc3ccccc3OC2)cc1	II (TYPE 2)	HEP-2	10 µM	20%
CC(=O)OC(C)c1ccc2c(c1)Sc1ccccc1O2	TYPE 3	BSC-1	2 µg/mL	100%
Clc1ccc2c(c1)CC(c1ccccc1)CO2	SABIN (TYPE 2)	HEP-2	10 µM	44%

For reference, 2 entries again:

smiles	strain	cell line	dose	result
C/C(=N\O)c1ccc2c(c1)Sc1ccccc1S2	TYPE 3	BSC-1	2 µg/mL	22%
COc1cc(C(=O)Oc2c(-c3ccc(Cl)c(Cl)c3)oc3ccccc3c2=O)ccc1OC(C)=O	TYPE 2	HeLa	1.07 µM	inactive